## PSTVd loop 15 mutant pool in Nicotiana benthamiana

From the data files of Wu et al. 2024, doi:10.1371/journal.ppat.1012142.

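A pool of all variants was put on leaves of three Nicotiana benthamiana plants. Samples came from the inoculated region at 5 days, the leaf margin at 10 and upper systemic leaves at 12.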

Region: loop 15 of PSTVd (intermediate strain), upper and lower strand joined, each 5' to 3', the first 7 letters being the upper strand, closing pairs included. Wild type: GGAAACCGCUACUAC. Varied positions (N): GGAAACCGNNNNNNC.

Numbers give reads per thousand; 0 = not seen among the reads, higher = more abundant. Each value is the mean of three plants. "Pool" is the share in the plasmid pool used as inoculum, on the same scale. The inoculated region was read from the minus strand, the other sites from the plus strand. For reference, wild type rose from 33.9 per thousand in the pool to 202, 200, 159 (inoculated region), 724, 746, 710 (leaf margin) and 856, 883, 880 (systemic leaves). The authors trace changes outside the varied positions to PCR and sequencing errors or to mutation in the plant; presence does not show that a variant is infectious alone. With 43,870-66,106 reads a sample, very low values are single reads.

GGAAACCGAGCUAAC (pool 0.192): inoculated region 0.102; leaf margin 0.0141; systemic leaves 0.00537.
GGAAACCGAGGUUCC (pool 0.176): inoculated region 0.111; leaf margin 0.00742; systemic leaves 0.
GGAAACCGAGUUACC (pool 0.192): inoculated region 0.106; leaf margin 0.00742; systemic leaves 0.
GGAAACCGAUUGGUC (pool 0.224): inoculated region 0.103; leaf margin 0.0275; systemic leaves 0.00537.
GGAAACCGCAGACGC (pool 0.176): inoculated region 0.0913; leaf margin 0.00539; systemic leaves 0.
GGAAACCGCCAUCUC (pool 0.208): inoculated region 0.0759; leaf margin 0.0134; systemic leaves 0.
GGAAACCGCGUUCUC (pool 0.208): inoculated region 0.101; leaf margin 0.0121; systemic leaves 0.
GGAAACCGCUCGGAC (pool 0.352): inoculated region 0.365; leaf margin 0.0980; systemic leaves 0.
GGAAACCGGAAGUCC (pool 0.256): inoculated region 0.378; leaf margin 0.125; systemic leaves 0.0161.
GGAAACCGGACAGCC (pool 0.208): inoculated region 0.118; leaf margin 0.0208; systemic leaves 0.
GGAAACCGGACUCCC (pool 0.240): inoculated region 0.0786; leaf margin 0; systemic leaves 0.00537.
GGAAACCGGAUGCUC (pool 0.256): inoculated region 0.102; leaf margin 0.00539; systemic leaves 0.
GGAAACCGGCAAAUC (pool 0.144): inoculated region 0.100; leaf margin 0; systemic leaves 0.
GGAAACCGGCGUUGC (pool 0.336): inoculated region 0.107; leaf margin 0.0254; systemic leaves 0.
GGAAACCGGUUAUUC (pool 0.224): inoculated region 0.114; leaf margin 0.0187; systemic leaves 0.0107.
GGAAACCGUAAUGUC (pool 0.320): inoculated region 0.227; leaf margin 0; systemic leaves 0.
GGAAACCGUAUCGGC (pool 0.192): inoculated region 0.106; leaf margin 0.0134; systemic leaves 0.
GGAAACCGUCCAAAC (pool 0.240): inoculated region 0.0849; leaf margin 0.0134; systemic leaves 0.
GGAAACCGUCCAUCC (pool 0.208): inoculated region 0.134; leaf margin 0.0195; systemic leaves 0.00537.
GGAAACCGUGAGUAC (pool 0.352): inoculated region 0.286; leaf margin 0.113; systemic leaves 0.0376.
GGAAACCGUGAUUAC (pool 0.208): inoculated region 0.516; leaf margin 0.0703; systemic leaves 0.0739.
GGAAACCGUGGAUGC (pool 0.176): inoculated region 0.0749; leaf margin 0; systemic leaves 0.
GGAAACCGUGGGGGC (pool 0.176): inoculated region 0.0924; leaf margin 0.00668; systemic leaves 0.
GGAAACCGUGGUCCC (pool 0.176): inoculated region 0.0494; leaf margin 0; systemic leaves 0.

A selection of 3 entries from above:

| sequence | pool | inoculated region | leaf margin | systemic leaves |
|---|---|---|---|---|
| GGAAACCGCAGACGC | 0.176 | 0.0913 | 0.00539 | 0 |
| GGAAACCGUGGUCCC | 0.176 | 0.0494 | 0 | 0 |
| GGAAACCGGCAAAUC | 0.144 | 0.100 | 0 | 0 |